A mixed list of measured activities; the numbers were collected in NIAID ChemDB.

All rows: whole-cell or culture tests; organism: HIV-1; method: RT activity; read-out: EC50

Blank or dashed fields: not listed here. a–b is a range or a potency band. ECn: concentration that inhibits the pathogen or its effect by n%. Conditions beyond the fields shown may differ between rows.

SMILES,strain or isolate,changes,cell line,setting,result
Nc1ccn([C@H]2S[C@@H](CO)C=C2F)c(=O)n1,LAI,-,PBMC,-,<11.9 µM
Cc1cn([C@H]2CO[C@@H](COP(=O)(N[C@@H](C)C(=O)OCc3ccccc3)Oc3ccc(Br)cc3)O2)c(=O)[nH]c1=O,LAI,RT-M184V,PBMC,-,1.9 µM
Cc1nc(CCCCCCC(=O)c2ccccc2)n2nc(NCCCCCCNCc3cn([C@H]4C=C[C@@H](CO)O4)c(=O)[nH]c3=O)ccc12,Nevirapine-resistant,-,CEM + CEM-SS,-,0.083 µM
COc1cc2c(cc1Cc1cccc(Cl)c1F)c(=O)c(C(=O)O)cn2[C@H](CO)C(C)C,NL4-3,G118R,PM1,-,0.0012 µM
O=c1ccn([C@@H]2C[C@@H](F)[C@H](CO)O2)c(=O)[nH]1,LAV,-,PBM,-,>100 µM
O=c1ccn([C@H]2C=C[C@@H](CO)O2)c(=O)n1CCCCCCN1CCN(CCNC(=S)Nc2ccc(Br)cn2)CC1,IIIB,-,CEM + CEM-SS,-,15 µM
O=c1[nH]c(=O)n([C@H]2C=C[C@@H](CO)O2)cc1CO,LAI,-,CEM + CEM TK-,-,25 µM
O=C(C(=O)N1CCN(C(=O)c2ccccc2F)CC1)c1c[nH]c2ccccc12,BRU,-,MT-2,-,<10 µM
CC(C)C1=C2C3CCC4[C@@]5(C)CC[C@H](OC(=O)CC(C)(C)C(=O)O)C(C)(C)C5CC[C@@]4(C)[C@]3(C)CC[C@@]2(NC(=O)N2CCC(F)(F)CC2)CC1=O,IIIB,-,MT-2,30% human serum,<0.199 µM
CCCCCCCCCCCCCCCCOP(=O)(OCCO[C@@H]1O[C@H](CO)[C@@H](O)[C@H](O)[C@@H]1O)OC[C@H]1O[C@@H](n2cc(C)c(=O)[nH]c2=O)C[C@@H]1N=[N+]=[N-],LAV-Bru,-,CEM,22 d,>1 µM
COC(=O)C[C@H](O)[C@@H](NC(=O)Oc1ccccc1)C(F)(F)F,LAI,-,CEM + CEM-SS,-,>100 µg/mL
CC(=O)Oc1cc2[nH]cc(C(=O)C(=O)N3CCN(C(=O)c4ccccc4)CC3)c2cc1OC(C)=O,BRU,-,MT-2,-,>10 µM
Cc1nnc(C(=O)N(C)[C@@]23CC[C@]4(C)C(CCC5[C@@]6(C)CC[C@H](OC(=O)CC(C)(C)C(=O)O)C(C)(C)C6CC[C@]54C)C2=C(C(C)C)C(=O)C3)o1,IIIB,-,MT-2,30% human serum,<0.199 µM
O=c1ccn([C@H]2C=C[C@@H](CO)O2)c(=O)n1CCCCN1CCN(CCNC(=S)Nc2ccc(Br)cn2)CC1,IIIB,-,CEM + CEM-SS,-,>100 µM
COC(=O)[C@H](C)NP(=O)(OC[C@@H]1OC[C@H](n2cc(C)c(=O)[nH]c2=O)O1)Oc1ccc(CC(C)(C)C)cc1,LAI,RT-M184V,PBMC,-,0.99 µM
COc1ccnc2[nH]cc(C(=O)C(=O)N3CCN(C(=O)c4ccccc4)C[C@H]3C)c12,LAI(GP120-M434I) Recombinant,GP120-M434I,MT-2,-,0.017 µM
CC(C)C1=C2C3CCC4[C@@]5(C)CC[C@H](OC(=O)CC(C)(C)C(=O)O)C(C)(C)C5CC[C@@]4(C)[C@]3(C)CC[C@@]2(NC(=O)OC2CCCCC2)CC1=O,IIIB,-,MT-2,30% human serum,<0.199 µM
CCOC(=O)c1cccc2c(C(=O)C(=O)N3CCN(C(=O)c4ccccc4)CC3)c[nH]c12,BRU,-,MT-2,-,<10 µM
CC(C)C1=C2C3CCC4[C@@]5(C)CC[C@H](OC(=O)CC(C)(C)C(=O)O)C(C)(C)C5CC[C@@]4(C)[C@]3(C)CC[C@@]2(NC(=O)N2CC[C@H](N)C2)CC1=O,IIIB,-,MT-2,30% human serum,<0.199 µM
COc1cc(-c2ccc(N=Nc3ccc4c(S(=O)(=O)O)cc(S(=O)(=O)O)c(N)c4c3O)c(OC)c2)ccc1N=Nc1ccc2c(S(=O)(=O)O)cc(S(=O)(=O)O)c(N)c2c1O,LAV,-,CEM + CEM-SS,-,1.9 µM
Cc1cn([C@@H]2C[C@@H](F)[C@H](CO)O2)c(=O)[nH]c1=O,LAV,-,PBMC,-,>100 µM
COC(=O)C[C@H](O)[C@@H](N)C(F)(F)F,LAI,-,CEM + CEM-SS,-,>100 µg/mL
Cc1ccc2[nH]cc(C(=O)C(=O)N3CCN(C(=O)c4ccccc4)CC3)c2c1,BRU,-,MT-2,-,~10 µM
CC(C)C1=C2[C@H]3CC[C@@H]4[C@@]5(C)CC[C@H](OC(=O)CC(C)(C)C(=O)O)C(C)(C)[C@@H]5CC[C@@]4(C)[C@]3(C)CC[C@@]2(NC(=O)N2CCN(C(C)C)CC2)CC1=O,IIIB,-,MT-2,30% human serum,<0.199 µM
CCCc1ccc(OP(=O)(N[C@@H](C)C(=O)OC)OC[C@@H]2OC[C@H](n3cc(C)c(=O)[nH]c3=O)O2)cc1,LAI,RT-M184V,PBMC,-,0.2 µM
[N-]=[N+]=N[C@@H]1C[C@@H](n2cc(F)c(N)nc2=O)O[C@H]1CO,LAV,-,PBMC,-,0.05 µM
CCOCc1cn([C@H]2C=C[C@@H](CO)O2)c(=O)[nH]c1=O,Nevirapine-resistant,-,CEM + CEM-SS,-,3 µM
Nc1ccn([C@@H]2C[C@@H](F)[C@H](CO)O2)c(=O)n1,LAV,-,PBM,-,>100 µM
C=CCc1ccccc1OP(=O)(N[C@@H](C)C(=O)OC)OC[C@@H]1OC[C@H](n2cc(C)c(=O)[nH]c2=O)O1,LAI,RT-M184V,PBMC,-,3.3 µM
O=c1ccn([C@H]2C=C[C@@H](CO)O2)c(=O)n1C/C=C/CN1CCN(CCNC(=S)Nc2ccc(Br)cn2)CC1,IIIB,-,CEM + CEM-SS,-,>100 µM
Cc1cn([C@H]2CO[C@@H](COP(=O)(N[C@@H](C)C(=O)OC(C)(C)C)Oc3ccccc3)O2)c(=O)[nH]c1=O,LAI,RT-M184V,PBMC,-,24.8 µM
O=C(Nc1ncnc2c1ncn2[C@@H]1O[C@H](CO)C[C@@H]1F)c1ccccc1,HXB2 Recombinant,-,MT-2,-,0.35 µM
O=C(CNC(=O)COc1ccccc1)NCc1ccc(C(=O)N2CCCCC2)cc1,93IN101,-,PBMC,-,16.3 µM
C[C@H](NC(=O)C[C@H](O)[C@@H](NC(=O)Oc1ccccc1)C(F)(F)F)C(=O)O,LAI,-,CEM + CEM-SS,-,>100 µg/mL
CC(C)C1=C2C3CCC4[C@@]5(C)CC[C@H](OC(=O)CC(C)(C)C(=O)O)C(C)(C)C5CC[C@@]4(C)[C@]3(C)CC[C@@]2(NC(=O)c2ccccc2C(=O)O)CC1=O,IIIB,-,MT-2,30% human serum,<0.199 µM
CCCCCCCC/C=C\CCCCCCCCOP(=O)(N[C@@H](C)C(=O)OC)OC[C@@H]1OC[C@H](n2cc(C)c(=O)[nH]c2=O)O1,LAI,RT-M184V,PBMC,-,4.9 µM
Cc1nc(CCCCCCC(=O)c2ccccc2)n2nc(NCCCCCCCCCCCCNCc3cn([C@H]4C=C[C@@H](CO)O4)c(=O)[nH]c3=O)ccc12,LAI,-,CEM + CEM TK-,-,6.5 µM
Cc1ccc(NC(=O)CN2CCN(Cc3nc(-c4ccc(F)cc4)no3)CC2)cc1,93IN101,-,PBMC,-,11 µM
Cc1nc(CCCCCCC(=O)c2ccccc2)n2nc(NCCCCCCCCCCNCc3cn([C@H]4C=C[C@@H](CO)O4)c(=O)[nH]c3=O)ccc12,Nevirapine-resistant,-,CEM + CEM-SS,-,0.1 µM
Cc1cn([C@H]2C[C@H](N=[N+]=[N-])[C@@H](COP(=O)(O)OCCO[C@H]3O[C@H](CO)[C@@H](O)[C@H](O)[C@@H]3O)O2)c(=O)[nH]c1=O,LAV-Bru,-,PBL,7 d,<1 µM
COC(=O)[C@H](C)NC(=O)C[C@H](O)[C@@H](NC(=O)Oc1ccccc1)C(F)(F)F,IIIB,-,MT-4,-,>100 µg/mL
CC(C)C(=O)N[C@@]12CC[C@]3(C)C(CCC4[C@@]5(C)CC[C@H](OC(=O)CC(C)(C)C(=O)O)C(C)(C)C5CC[C@]43C)C1=C(C(C)C)C(=O)C2,IIIB,-,MT-2,30% human serum,<0.199 µM
COC(=O)[C@H](C)NP(=O)(OC[C@@H]1OC[C@H](n2cc(C)c(=O)[nH]c2=O)O1)Oc1ccc(C#N)cc1,LAI,RT-M184V,PBMC,-,0.54 µM
Nc1nc(NC2CC2)c2ncn([C@H]3CO[C@@H](CO)O3)c2n1,IIIB BCH-13520-resistant (RT K65R),RT-K65R,MT-2,-,0.57 µM
Cc1cn([C@H]2C=C[C@@H](CO)O2)c(=O)[nH]c1=O,IIIB,-,CEM + CEM-SS,-,0.059 µM
Cc1cn([C@H]2CO[C@@H](CO[P@@]3(=O)OCC[C@@H](c4ccccc4)O3)O2)c(=O)[nH]c1=O,LAI,RT-M184V,PBMC,-,0.48 µM
CCCCCCCCCCCCCCCCOP(=O)(OC[C@H]1OC(O)[C@@H](O)[C@@H](O)[C@@H]1O)OC[C@H]1O[C@@H](n2cc(C)c(=O)[nH]c2=O)C[C@@H]1N=[N+]=[N-],LAV-Bru,-,CEM,22 d,>1 µM
COc1ncc(OC)c2c(C(=O)C(=O)N3CCN(C(=O)c4ccccc4)CC3)c[nH]c12,MN,-,MT-2,-,>1 µM
Cc1nnc(C(=O)N[C@@]23CC[C@]4(C)C(CCC5[C@@]6(C)CC[C@H](OC(=O)[C@H]7CCC[C@@H](C(=O)O)C7)C(C)(C)C6CC[C@]54C)C2=C(C(C)C)C(=O)C3)o1,IIIB,-,MT-2,30% human serum,0.2–0.999 µM
O=C(C(=O)N1CCN(C(=O)c2ccccc2)CC1)c1c[nH]c2c(Cl)cccc12,BRU,-,MT-2,-,<10 µM

Repeating the final 5 entries:

SMILES,strain or isolate,changes,cell line,setting,result
Cc1cn([C@H]2CO[C@@H](CO[P@@]3(=O)OCC[C@@H](c4ccccc4)O3)O2)c(=O)[nH]c1=O,LAI,RT-M184V,PBMC,-,0.48 µM
CCCCCCCCCCCCCCCCOP(=O)(OC[C@H]1OC(O)[C@@H](O)[C@@H](O)[C@@H]1O)OC[C@H]1O[C@@H](n2cc(C)c(=O)[nH]c2=O)C[C@@H]1N=[N+]=[N-],LAV-Bru,-,CEM,22 d,>1 µM
COc1ncc(OC)c2c(C(=O)C(=O)N3CCN(C(=O)c4ccccc4)CC3)c[nH]c12,MN,-,MT-2,-,>1 µM
Cc1nnc(C(=O)N[C@@]23CC[C@]4(C)C(CCC5[C@@]6(C)CC[C@H](OC(=O)[C@H]7CCC[C@@H](C(=O)O)C7)C(C)(C)C6CC[C@]54C)C2=C(C(C)C)C(=O)C3)o1,IIIB,-,MT-2,30% human serum,0.2–0.999 µM
O=C(C(=O)N1CCN(C(=O)c2ccccc2)CC1)c1c[nH]c2c(Cl)cccc12,BRU,-,MT-2,-,<10 µM